Pooled drug test results. Numbers come from NIAID ChemDB, via PubChem.

Shared fields: target-level tests; agent: HIV-1; protein: Reverse transcriptase

ICn: concentration for n% inhibition. Blank or dashed fields: not listed here. Neighbouring rows are from separate reports.

structure	strain or isolate	changes	method	setting	endpoint	value
Nc1ncnc2c1ncn2[C@@H]1O[C@H](COP(=O)(O)OP(=O)(O)OP(=O)(O)O)C[C@@H]1F	-	-	nucleotide incorporation / radiometric	-	Ki	2.6 µM
O=C1CSC(c2c(F)cccc2Cl)N1Cc1ccco1	-	-	ELISA	-	IC50	>10 µg/mL
N#Cc1ccc(NC(=S)N[C@@H]2[C@@H]3COc4c(F)ccc(F)c4[C@@H]32)nc1	-	Wild type	scintillation proximity / radiometric	-	IC50	0.0057 µM
CCC1(c2cccc(Cl)c2)Cc2ccccc2-n2cccc2C1=O	-	RT-L100I	nucleotide incorporation / radiometric	-	IC50	10 µM
NS(=O)(=O)c1ccc(NC(=O)CSc2nnnn2-c2cccc(Cl)c2Cl)c(Cl)c1	-	-	-	-	IC50	0.009 µM
O=C1CSC(c2c(F)cccc2F)N1Cc1ccco1	-	-	ELISA	-	IC50	>10 µg/mL
O=C(O)Cn1cnc2c(Oc3ccccc3[N+](=O)[O-])nc(NC(=O)OCc3ccccc3)nc21	NNRTI-resistant	K103N	nucleotide incorporation / radiometric	-	Ki	160 µM
Nc1ccn([C@@H]2CS[C@H](COP(=O)(O)OP(=O)(O)OP(=O)(O)O)O2)c(=O)n1	-	RT-P157S	-	-	Ki	2.3 µM
O=C1c2ccncc2C(=O)N1CCNC(=S)Nc1ccc(Br)cn1	-	RT-Y181I	nucleotide incorporation	-	Ki	>5 µM
CN(c1ncccc1CO)C1CCN(C(=O)c2cc3cc(NS(C)(=O)=O)ccc3[nH]2)CC1	IIIB	RT-Y181C	nucleotide incorporation	-	IC50	>50 µM
Cc1c(Cc2c(Cl)cccc2Cl)nc(SCc2ccc3c(c2)OCO3)[nH]c1=O	-	RT-181I	nucleotide incorporation / radiometric	-	IC50	>400 µM
c1ccc(C2SCc3nc4ccccc4n32)cc1	-	RT-I135T	-	-	IC50	>50 µM
Cc1cc(C)cc(C(=O)c2cc(Cl)ccc2OCCN2CCC(=O)NC2=O)c1	-	K103N + Y181C	RT activity	pseudotyped	Ki	57 µM
CCN1c2ncc(COc3ccccc3)cc2C(=O)N(C)c2ccc(Cl)nc21	WT	-	nucleotide incorporation / radiometric	-	IC50	<1 µM
CC(C)=CCOc1cc(NC(=S)c2ccoc2C)ccc1Cl	-	RT-K103N	-	-	IC50	22.3 µM
CC(C)(C)OC(=O)Cn1cnc2c(Oc3ccccc3[N+](=O)[O-])nc(NC(=O)OCc3ccccc3)nc21	WT	-	nucleotide incorporation / radiometric	-	Ki	3.7 µM
CC(C)=CCC/C(C)=C/C[C@]12C=C3C(=O)c4c(O)cc(O)c(CC=C(C)C)c4O[C@]34C(C1)C(C)(C)O[C@]4(CC=C(C)C)C2=O	-	-	nucleotide incorporation / radiometric	-	IC50	190 µg/mL
Cc1c(Cc2c(Cl)cccc2Cl)nc(SCc2ccccc2)[nH]c1=O	-	RT-181I	nucleotide incorporation / radiometric	-	IC50	>400 µM
O=C1CSC(c2ccnc3ccccc23)N1Cc1ccco1	-	-	ELISA	-	IC50	>10 µg/mL
COc1ccc(CSc2nc(Cc3ccc(F)cc3)c(C)c(=O)[nH]2)cc1	-	RT-K103N	nucleotide incorporation / radiometric	-	IC50	>400 µM
CCN1c2ncc(CCc3cccc(F)c3)cc2C(=O)N(C)c2cccnc21	WT	-	nucleotide incorporation / radiometric	-	IC50	<1 µM
Nc1ncnc2c1ncn2CCOCP(=O)(O)OP(=O)(O)OP(=O)(O)O	-	RT-L74V	nucleotide incorporation / radiometric	-	Ki	0.43 µM
O=S(=O)(O)c1cc(O)c2c(NS(=O)(=O)c3ccc(-c4ccc(S(=O)(=O)Nc5cc(S(=O)(=O)O)cc6cc(S(=O)(=O)O)cc(O)c56)cc4)cc3)cc(S(=O)(=O)O)cc2c1	-	-	RT activity	-	IC50	0.62 µM
Cc1c(Cc2c(Cl)cccc2Cl)nc(S(=O)(=O)Cc2ccc([N+](=O)[O-])cc2)[nH]c1=O	-	RT-K103N	nucleotide incorporation / radiometric	-	IC50	>400 µM
O=C(CSc1nnnn1-c1cc(Cl)ccc1Cl)Nc1ccccc1[N+](=O)[O-]	-	RT-K103N	-	-	IC50	0.004 µM
Cc1occc1C(=S)Nc1ccc(Cl)c(/C=N/OC(C)(C)C)c1	-	RT-P236L	-	-	IC50	4.1 µM
COc1ccc(/C=C/NC(=O)Nc2ccc(Cl)cn2)cc1OC	-	RT-K103N	nucleotide incorporation	-	Ki	>20 µM
CCN1c2ncc(COc3cccc(OC)c3)cc2C(=O)N(C)c2ccc(Cl)nc21	WT	-	nucleotide incorporation / radiometric	-	IC50	<1 µM
CCc1ccc(N2CC(O)Cn3c2nc2c3c(=O)n(C)c(=O)n2C)cc1	-	-	RT activity / RNase H / absorbance	-	IC50	>100 µM
Nc1nc2c(ncn2[C@H]2C=C[C@@H](COP(=O)(O)OP(=O)(O)OP(=O)(O)O)C2)c(=O)[nH]1	-	-	-	-	Ki	0.05 µM
Cc1cc2c(cc1C)n1cccc1c(=O)n2CCNC(=S)Nc1ccc(Br)cn1	-	RT-Y181I	nucleotide incorporation	-	Ki	0.99 µM
CCC1(c2cccc(I)c2)Oc2ccccc2-n2cccc2C1=O	-	RT-L100I	nucleotide incorporation / radiometric	-	IC50	>10 µM
Cc1c(Sc2ccccc2)n(COCCO)c(=O)[nH]c1=O	-	RT-Y181I	nucleotide incorporation	-	IC50	2 µM
CC(C)=CCc1c2c(c(O)c3c1O[C@@]14C(=C[C@H]5CC1C(C)(C)O[C@]4(C/C=C(/C)C(=O)O)C5=O)C3=O)C=CC(C)(C)O2	-	-	nucleotide incorporation / radiometric	-	IC50	11 µg/mL
Cc1cn([C@H]2C=C[C@@H](COP(=O)(O)OP(=O)(O)OP(=O)(O)O)O2)c(=O)[nH]c1=O	-	RT-I135A	nucleotide incorporation / radiometric	-	IC50	0.16 µM
O=C1CSC(c2c(Cl)cccc2Cl)N1C1CCCCC1	-	-	ELISA	-	IC50	>10 µg/mL
CCC1(c2ccc(COc3cccc(Cl)c3)cc2)Oc2ccccc2-n2cccc2C1=O	-	RT-Y188L	nucleotide incorporation / radiometric	-	IC50	>10 µM
CCN1c2ncc(Cc3ccccc3)cc2C(=O)N(C)c2cccnc21	-	RT-Y181C	nucleotide incorporation / radiometric	-	IC50	~1 µM
Cc1c(Cc2c(F)cccc2F)nc(SCc2ccc(C(C)C)cc2)[nH]c1=O	-	RT-181I	nucleotide incorporation / radiometric	-	IC50	>400 µM
CCC1(c2ccc(CNc3ccccc3)cc2)Oc2ccccc2-n2cccc2C1=O	-	RT-V106A	nucleotide incorporation / radiometric	-	IC50	1.2 µM
Cc1cccc(-n2nnnc2SCC(=O)Nc2ccccc2[N+](=O)[O-])c1C	-	RT-K103N	-	-	IC50	0.18 µM
Cc1cn([C@H]2C=C[C@@H](COP(=O)(O)OP(=O)(O)OP(=O)(O)O)O2)c(=O)[nH]c1=O	-	RT-Y181I	RT activity	-	Ki	0.09 µM
O=c1c2cccn2c2cc(Cl)c(Cl)cc2n1CCNC(=S)Nc1ccc(Br)cn1	-	RT-L100I	nucleotide incorporation	-	Ki	0.25 µM
Cc1ccc(Cl)cc1-n1nnnc1SCC(=O)Nc1ccccc1[N+](=O)[O-]	-	RT-K103N	-	-	IC50	0.023 µM
Cc1cc(C)cc(C(=O)c2cc(Cl)ccc2OCCN2C(=O)NC(=O)C(C)C2C)c1	-	-	RT activity	pseudotyped	Ki	0.08 µM
CCC1(c2ccc(Cn3ccsc3=N)cc2)Oc2ccccc2-n2cccc2C1=O	WT	-	nucleotide incorporation / radiometric	-	IC50	1.6 µM
Cc1cc(C)c(-n2nnnc2SCC(=O)Nc2ccc(C(=O)NCCCN(C)C)cc2Cl)c(C)c1	-	RT-K103N	-	-	IC50	0.01 µM
C/C=C/CSc1cc(NC(=S)c2ccsc2C)ccc1Cl	-	RT-Y188L	-	-	IC50	>100 µM
CCN1c2ncc(CCc3cc[nH]c(=O)c3)cc2C(=O)N(C)c2ccc(Cl)nc21	WT	-	nucleotide incorporation / radiometric	-	IC50	<1 µM
Cc1c(Cc2c(Cl)cccc2Cl)nc(SCc2cccc(C#N)c2)[nH]c1=O	-	RT-181I	nucleotide incorporation / radiometric	-	IC50	>400 µM
COc1ccc2c(c1)N(C(=O)OC(C)C)[C@@H](CSC)C(=S)N2	-	-	scintillation proximity / radiometric	-	IC50	0.08 µM
Nc1ncnc2c1ncn2[C@H]1CC[C@@H](COP(=O)(O)OP(=O)(O)OP(=O)(O)O)O1	-	RT-Q151M	nucleotide incorporation / radiometric	-	Ki	1.3 µM
CCC1(c2cccc(COc3ccccc3)c2)Oc2ccccc2-n2cccc2C1=O	-	RT-K103N	nucleotide incorporation / radiometric	-	IC50	4.9 µM
Nc1ccn([C@H]2CC[C@@H](COP(=O)(O)OP(=O)(O)OP(=O)(O)O)O2)c(=O)n1	-	RT-K65R	nucleotide incorporation / radiometric	-	Ki	1.4 µM
CCC1(c2ccc(CNc3cccc(F)c3)cc2)Oc2ccccc2-n2cccc2C1=O	WT	-	nucleotide incorporation / radiometric	-	IC50	0.4 µM
CCN1c2ncc(CNc3cccc(N)c3)cc2C(=O)N(C)c2ccc(Cl)nc21	WT	-	nucleotide incorporation / radiometric	-	IC50	<1 µM
Cc1cn([C@H]2C=C[C@@H](COP(=O)(O)OP(=O)(O)OP(=O)(O)O)O2)c(=O)[nH]c1=O	-	RT-Q161L H208Y	-	-	Ki	0.039 µM
Cc1cc(C)c(-n2nnnc2SCC(=O)Nc2ccc(S(N)(=O)=O)cc2C)c(C)c1	-	-	-	-	IC50	0.054 µM
CC(C)=CCc1c2c(c(O)c3c1O[C@@]14C(C[C@H]5CC1C(C)(C)O[C@]4(C/C=C(\C)C=O)C5=O)C3=O)C=CC(C)(C)O2	-	-	nucleotide incorporation / radiometric	-	IC50	42.3 µg/mL

The last 6 rows once more:

structure,strain or isolate,changes,method,setting,endpoint,value
Nc1ccn([C@H]2CC[C@@H](COP(=O)(O)OP(=O)(O)OP(=O)(O)O)O2)c(=O)n1,-,RT-K65R,nucleotide incorporation / radiometric,-,Ki,1.4 µM
CCC1(c2ccc(CNc3cccc(F)c3)cc2)Oc2ccccc2-n2cccc2C1=O,WT,-,nucleotide incorporation / radiometric,-,IC50,0.4 µM
CCN1c2ncc(CNc3cccc(N)c3)cc2C(=O)N(C)c2ccc(Cl)nc21,WT,-,nucleotide incorporation / radiometric,-,IC50,<1 µM
Cc1cn([C@H]2C=C[C@@H](COP(=O)(O)OP(=O)(O)OP(=O)(O)O)O2)c(=O)[nH]c1=O,-,RT-Q161L H208Y,-,-,Ki,0.039 µM
Cc1cc(C)c(-n2nnnc2SCC(=O)Nc2ccc(S(N)(=O)=O)cc2C)c(C)c1,-,-,-,-,IC50,0.054 µM
CC(C)=CCc1c2c(c(O)c3c1O[C@@]14C(C[C@H]5CC1C(C)(C)O[C@]4(C/C=C(\C)C=O)C5=O)C3=O)C=CC(C)(C)O2,-,-,nucleotide incorporation / radiometric,-,IC50,42.3 µg/mL